Measured values reported in the supplement of paper PMC9931576.
Human monoclonal antibodies against the spike receptor-binding domain (heavy:light variable regions). IC50 against pseudoviruses bearing the spike of naturally observed variants; lower = stronger; >10 µg/ml means not reached at the top dose. No active / inactive call. The stated detection limit is 0.0005 µg/ml; values near or below 0.001 µg/ml lie at the floor of the assay.

B1: BD55-6687 (protein)
chain 1: QVQLVESGGGVVQPGRSLRLSCAASGFTFRYHGMHWVRQAPGKGLEWVAVIWNDGTNKYYADSVKGRFTISRDNSKNTLYLQMYSLRAEDTAVYYCAREAPEGSGSFFTLRLDYWGQGTHVTVSS
chain 2: DIQMTQSPSSLSASVGDRVTITCRASQSISGNLNWYQQKAGRAPKLLIYAASSLESGVPSGFSGSGSGTDFTLTISSLQPEDFATYFCQQSYSSPYTFGQGTKLEIK
B2: BD55-6695 (protein)
chain 1: QVQLVQSGAEVKKPGASVKISCKASGYTFTNYYIHWVRQAPGQGLEWMGIAHPSGARINYAQKLQGRVTMTRDTATSTAYMELNSLTSEDTAIYYCARDRLLIGTVGPEWFDPWGQGTLIIVSS
chain 2: DIQLTQSPSSLSASVGDRVTITCRASQFINTYLNWYQQKSGRAPRVLIYAASTLQSGVPSRFSGSGSGTDFSLTISSLQPEDVAIYYCQQSYSTPPWTFGQGTKVEI
B3: BD55-6728 (protein)
chain 1: EVQLVESGGGLVQPGGSLRLSCAASGFTFSRFAMHWVRQAPGKGLEYVSSISSNGGSTYYANSVKGRFTISRDNSKNTLYLQLGSLRPEDRAMYYCARESTEVTHWYFDLWGRGTLVTVSS
chain 2: DIQMTQSPSSLSASLGDRVTITCRASQTISRYLNWYQQKPGKAPKVLIYAASSLQSGVPSRFSGSGSGTDFTLTISSLQPEDFATYYCQQSYVTPEYTFGQGTKVELK
B4: BD55-6725 (protein)
chain 1: EVQVVESGGGLVKPGGSLRLSCAASGFTFSSYTMNWVRQAPGKGLEWVSSITSSSTYIYYADSLKGRFTISRDDAKNSLYLQMNSLRAEDTAVYYCARDRFGEFIYPGALDIWGQGTLVTVSS
chain 2: EIVLAQSPATLSLSPGERAILSCRASQSVNTYLAWYQQKPGQAPRLLIYDASNRATGIPARFSGGGSGTDFTLTISSLEPEDFAVYYCQQRSNWPLTFGQGTKVEIK
B5: BD55-6694 (protein)
chain 1: DVQLVQSGAEVKKPGESLKISCKGSENNFANHWIGWVRQRPGKGLEWMGVIYPGDSDTRYGPSFQGQVTMSVDKSISTAYLQWSSLKASDTAMYFCASRNWGYYSYGMDVWGQGTTVIVSS
chain 2: DIQMTQSPSSVSASVGDRVTITCRASQGISNWLAWYQQKPGKAPNLLIYSASTLQSGVPSRFSGSGSGTDFTLTIDSLQPEDFATYYCQQASTFPPTFGQGTRLEI
B6: BD55-6712 (protein)
chain 1: QERLVESGGGVVQPGRSLRLSCAASGLMFSSYAMFWVRQAPGKGLEWVAVISFDGSDKDYADSVKGRFTISRDNSKSTLFLQMNSMRVEDAGVYYCARDPLGFGPQSGGMDVWGQGTTVIVSS
chain 2: DIQMTQSPSSLSASVGDRVTITCRASQRISTYLNWYQQKPGKAPKLLIYAASSLQRGVPSRFSGSGSGTDFTLTISSLQPEDFATYYCQESYSTRTFGQGTRVEI
B7: BD55-6689 (protein)
chain 1: QVQLVQSGAEVRRPGASVRLSCKSSGYTFTTYYIHWVRRAPGQGLEWVGIINPSDGGTNFAQKFQGRVTMTRDTSTNTVYMELSSLKSEDTAVYYCAKALIVAGAPIYSYYCGVDVWGQGTAVTVSS
chain 2: SYELTQPPSVSVSPGQTAIITCSGDALPKQYAYWYHQKPGQAPVLLIYKDGERPSGIPERFFGSSSGTTVTLTISGAQAEDEADYYCQSTDSSGTYVVFGGGTKLTVL
B8: BD55-6719 (protein)
chain 1: QVQLQESGPGLVKPSETLSLTCSVSGGSISDYYWSWIRQPPGKGLEWIGYIYYSGSTNYNPSLKSRVTISVDTPKRQFSLKLSSVTAADTAMYYCARVGWEPQAVRAFDIWGQGTMVTVSA
chain 2: DIQMTQSPSTLSASVGDRVTITCRASQNILGWLAWYQQKPGKAPKLLIYKASSLDSGVPSRFSGSGSGTDFTLTISSLQPDDFATYYCQQYNTYSPLTFGGGTKVEIK
B9: BD55-6706 (protein)
chain 1: EVQLVESGGGLVQPGGSLRLSCAASGFTFSKYWMHWVRQAPGKGLVWVGRLNSDGSNTDYADSVRGRFTFSRDNAKNTLYLQLNSLRVEDTAVYYCAREEGYYYYYMDVWGKGTTVTVSS
chain 2: DIQMTQSPSSLSASVGDRVTITCRASQSISNYLNWYQHKPGKAPKLLIYSASTLQSGVPSRFSGSGSGTDFTLTISSLQPEDFATYYCQQSYTMPPLTFGGGTKVEIK
B10: BD55-1323 (protein)
chain 1: EVQLVQSGAELKKPGESLRISCKGSGYSFTSFWITWVRQMPGKGLEWMGKIDPSESYTEYGPAFQGHVTISVDKSITTAYLQWSSLKASDTAIYYCARRVAGYHYGLDLWGQGTTVIVSS
chain 2: DIQMTQSPSSLSASVGDRVTITCRASQDISHFLAWYQQKPGKVPNLLIYAASTLQSGVPSRFSGSGSGTDFTLTISSLQPEDVATYYCQKYNSAPPDTFGQGTKVEI
B11: BD55-6699 (protein)
chain 1: QVQLVQSGGEVKKPGASVKVSCKASGYTFSNYGISWMRQAPGQGLEWMGWISGYNGKTNYAQKFQGKVTMTTDTSTSTAYMELRSLRSDDTAVYYCARDPVNYEYSGYDDLLSDIFDYWGQGTLVTVSS
chain 2: DIQMTQSPSSLSASVGDRVTITCRASQGIRNDLAWYQQKPGKAPERLIYAASSLQGGVPSRFSGSGSGTAFTLTISSLQPEDSATYYCLQHNTIPRTFGQGTKLEIK
B12: BD55-6710 (protein)
chain 1: QVQLSQSGAEVKRPGASVKVSCKTSGYPFTDYGISWVRQAPGQGLEWMGWISGYNENTKYAQKFQGRVTLTTDTSTNTAFMEVRRLTSDDTAVYYCARDAGYCTTIGCFAAWYFDLWGRGTLVTVTS
chain 2: QSVLTQPSSVSGAPGQRVTISCTGSSSNIGAGFDVHWYQQLPGTAPQLLIYGNTNRPSGVPDRFSGSKSGTSASLAITGLQAEDEADYYCQAYDSSLSGWVFGGGSKLTVL

Tests used:
Test in all cases: pseudovirus neutralization IC50; higher = weaker neutralization
[1] = molecular target: SARS-CoV-2 Omicron BA.1 spike pseudovirus
Description: (§1)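 Single-round VSV luciferase pseudovirus mixed with antibody dilutions for 1 h and put on Huh-7 cells for about a day; IC50 from the dose curve.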

[2] = molecular target: SARS-CoV-2 Omicron BA.2 spike pseudovirus
Description: as §1

[3] = molecular target: SARS-CoV-2 Omicron BA.2.75 spike pseudovirus
Description: as §1

[4] = molecular target: SARS-CoV-2 Omicron BA.5 spike pseudovirus
Description: as §1

[5] = molecular target: SARS-CoV-2 Omicron BQ.1.1 spike pseudovirus
Description: as §1

[6] = molecular target: SARS-CoV-2 Omicron XBB spike pseudovirus
Description: as §1

[7] = molecular target: SARS-CoV-2 early D614G spike pseudovirus
Description: as §1

| Binder | pseudovirus neutralization IC50 [1] [µg/mL] | pseudovirus neutralization IC50 [2] [µg/mL] | pseudovirus neutralization IC50 [3] [µg/mL] | pseudovirus neutralization IC50 [4] [µg/mL] | pseudovirus neutralization IC50 [5] [µg/mL] | pseudovirus neutralization IC50 [6] [µg/mL] | pseudovirus neutralization IC50 [7] [µg/mL] |
| --- | --- | --- | --- | --- | --- | --- | --- |
| B1 | 0.0853 | > 10 | > 10 | > 10 | > 10 | > 10 | 0.0237 |
| B2 | > 10 | > 10 | > 10 | > 10 | > 10 | > 10 | > 10 |
| B3 | > 10 | > 10 | > 10 | > 10 | > 10 | > 10 | > 10 |
| B4 | > 10 | > 10 | > 10 | > 10 | > 10 | > 10 | > 10 |
| B5 | > 10 | > 10 | > 10 | > 10 | > 10 | > 10 | > 10 |
| B6 | > 10 | > 10 | > 10 | > 10 | > 10 | > 10 | > 10 |
| B7 | > 10 | > 10 | > 10 | > 10 | > 10 | > 10 | 0.0885 |
| B8 | 2.67 | 2.15 | 2.93 | 1.87 | 1.83 | 1.71 | 0.927 |
| B9 | > 10 | > 10 | > 10 | > 10 | > 10 | > 10 | > 10 |
| B10 | > 10 | > 10 | > 10 | > 10 | > 10 | > 10 | 0.00187 |
| B11 | 3.16 | > 10 | > 10 | > 10 | > 10 | > 10 | 0.143 |
| B12 | > 10 | > 10 | > 10 | > 10 | > 10 | > 10 | > 10 |
